Measured values: patent US9744186B2 (priority 2012, dated 2017)

System: HCV luciferase replicon
Experiment: HCV luciferase replicon inhibition in the presence of carboxylesterase inhibitors (benzil or BNPP)
Format: cell-based, hepatitis C virus (HCV)
Procedure: The cells were counted using a hemocytometer, and then diluted to 1×10^5 cells/mL in DMEM with 10% FBS and […] G415. 100 μL of the cells (10,000 cells) were plated per well in a white-walled 96-well plate according to the template on the following page.
Treating the cells: Media (DMEM with 2% FBS) was pre-warmed to 37° C. Stock solutions (100 mM) of Benzil and BNPP were diluted in DMEM with 2% FBS to 100 μM. […] The cells were returned to 37° C. for 1 h. […] The 1.0 mM dilution of GCB or GTB in DMEM+2% FBS+100 μM Benzil or BNPP was serially diluted in DMEM with 2% FBS, 0.5% DMSO, 100 μM benzil or BNPP. At the end of the 1 h incubation, the 96-well plate with cells plated as above was removed from the 37° C. incubator, and 50 μL media diluted test drug and 100 μM of benzil or BNPP was added to each well. The plates were gently rocked to mix the media. Also included were conditions with inhibitors alone (DMEM+2% FBS+0.5% DMSO+100 μM benzil or BNPP) and media alone (DMEM+2% FBS+0.5% DMSO) in triplicate. The plates were returned to 37° C. for 48 h.

COc1cc(C(=O)Nc2ccn([C@@H]3O[C@H](CO)[C@@H](O)C3(F)F)c(=O)n2)cc(OC)c1OC [GTB, N^4-(3,4,5-Trimethoxybenzoyl)gemcitabine]
Fold-change in IC50 +BNPP (100 μM BNPP): 1.6
Fold-change in IC50 +Benzil (100 μM benzil): 2.5
